Holding throughout (experiment): DTP human tumour cell line panel, 48 h
For test [1], the system named is HS 578T breast.
Test [2] has as its system NCI-H322M lung.
Test [3] has as its system SN12C renal.

This is an account of results in PubChem BioAssay (NCI).

SMILES strings stand for the structures.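 Dose response: 5 concentrations. Exposure: 48 h. Format: 96-well plates. Endpoint: linear interpolation; highest concentration if not reached. GI50 is the concentration that inhibits growth by half. TGI: total growth inhibition.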

On to `CC(=O)OC[C@]12C[C@H](OC(=O)CC(C)C)C(C)=C[C@H]1O[C@@H]1[C@H](O)[C@@H](O)[C@@]2(C)[C@@]12CO2`, for which the GI50 – broadly, the concentration that inhibits growth by half – in test [1] is 17.9 nM; in test [2], 101 nM; in test [3], 26.7 nM. For the same compound, the TGI (commonly the concentration giving total growth inhibition) in test [1] turned out to be 49.1 nM; in test [2], 771 nM; in test [3], 141 nM.
